From PMC6629785 (Frontiers in Chemistry, 2019)

Assay: general procedure: Fmoc solid-phase peptide synthesis; Rink amide resin
Conditions: whole synthesis

Substance	isolated yield [%]	final HPLC purity [%]
GKPGRGDL-OH	27	>98
GDLWILRG-OH	34	>98
NIAAYPH-OH	41	>98
GYGYTSNAY-OH	38	>98
GSAFAPAA-OH	43	> 98
NAYKWPNI-OH	30	>98
AAPAFASG-OH	31	>98
RGTAPGGY-OH	25	>98
